# Measured values reported in publication PMC9734377 (Communications Biology, 2022).
# Test system: NC(=O)c1ccc[n+]([C@@H]2O[C@H](COP(=O)(O)OP(=O)(O)OC[C@H]3O[C@@H](n4cnc5c(N)ncnc54)[C@H](OP(=O)(O)O)[C@@H]3O)[C@@H](O)[C@H]2O)c1
# Experiment: purified protein
# Settings: 800 µM G6P, 50 mM Tris pH 7.5, 3.3 mM MgCl2, 25 °C, fraction assayed not told, crystals from dimer fraction, crystal ligand given as NADP(H), redox state open
substance,measurement,value
LdG6PD wt dimer (LdG6PD^Dimer) (Leishmania donovani; C138S),Km,14.6 ± 1.6 µM
same,Vmax,225 µmol/min/mg
same,kcat,250 s⁻¹
same,kcat/Km,1.73e+07 M⁻¹ s⁻¹
